Test system: Hela cell line
Assay: Cytotoxicity assay (Alamar blue), Hela
Format: cell-based, human
Settings: EC50 Hela cell line/MIC(S. aureus)
Experimental: The selectivity of these compounds for activity against prokaryotic cells over mammalian cells was analyzed by considering their cytotoxicity against Hela, heK-293, CaCo, and MDCK […] cell lines, allowing estimation of the therapeutic ratio [EC50Hela cell line/MIC(S. aureus)] (Table 3). […]
Screening of compounds were performed by Oxford Antibiotic Group, Austria. For MIC determination by broth dilution assay, the samples were tested in a primary 96 well plates screening assay, in duplicate. The compounds were diluted in Mueller Hinton Broth (MHB) for bacterial screening to a stock solution of 1000 µg/mL, serial diluted and overlaid with a microbe solution in a concentration of 10^4 CFU/ml. The plates were incubated for […]
For cytotoxicity testing, the synthesized compounds were tested against four different cell lines: HeLa, HEK 293, MDCK and CaCo. The cells were seeded in a 96 well plate and incubated until a confluence of 80% was achieved (under physiological conditions - 37°C, 5% CO2 and 95% humidity). The samples were tested by serial dilution in triplicates with starting concentration of 250 µg/mL. After 24 and 48 hours the survival of cells was evaluated by microscope and measured with Alamar blue. IC50 values were obtained from the calibration curves. […]

In order of rising “therapeutic ratio (using Hela cell lines)” value:
1. CCOC(=O)C1=C(O)[C@@H]2[C@@H](c3ccc(F)cc3)O[C@@H](C(C)(C)C)N2C1=O (racemic) [10c]  1
2. CCOC(=O)C1=C(O)[C@@H]2[C@@H](c3ccc(Cl)cc3)O[C@@H](C(C)(C)C)N2C1=O (racemic) [10d]  2
3. CCOC(=O)C1=C(O)[C@@H]2[C@@H](c3ccc(Br)cc3)O[C@@H](C(C)(C)C)N2C1=O (racemic) [10e]  2
4. CC(C)(C)[C@@H]1O[C@H](c2ccccc2)[C@H]2C(O)=C(C(=O)NC34CC5CC(CC(C5)C3)C4)C(=O)N21 (mixture of isomers) [12a]  26
